Pooled drug test results. Numbers come from NIAID ChemDB, via PubChem.

All rows: tests in culture; organism: Human cytomegalovirus

Conditions beyond the fields shown may differ between rows. ECn is the concentration giving n% inhibition of infection, replication or growth.

Nc1nc2c(ncn2COC(CO)CO)c(=O)[nH]1 ; cells: HFF ; strain: TOWNE ; method: plaque count ; measure: EC50 ; value: 13.3 µM
Nc1nc2c(ncn2COC(CO)CO)c(=O)[nH]1 ; strain: VR4991 (ganciclovir-resistant) ; method: plaque count ; measure: EC90 ; value: 92.5 µM
O[C@@H]1[C@H](O)[C@H](O)CO[C@H]1n1c(Br)nc2cc(Cl)c(Cl)cc21 ; cells: HFF ; strain: CH ; method: plaque count ; measure: EC50 ; value: 3 µM
O=C(NCc1ccc(Cl)cc1)c1c[nH]c2c(F)cc(CCCO)cc2c1=O ; strain: AD169 ; method: plaque count ; measure: EC50 ; value: 0.7 µM
CCCCCCCC/C=C\CCCCCCCCOCCOP(=O)(O)CO[C@H](CO)Cn1ccc(N)nc1=O ; cells: HFF ; strain: C8914-6 ; method: plaque count ; measure: EC50 ; value: 0.07 µM
OC[C@H]1O[C@@H](n2c(Cl)nc3cc(Cl)c(Cl)cc32)[C@H](O)[C@@H]1O ; strain: Recombinant C4 (D341E) ; method: virus yield ; measure: EC50 ; value: <39 µM
Nc1ccn(C[C@@H](CO)OCP(=O)(O)O)c(=O)n1.O=C(O)P(=O)(O)O ; cells: MRC-5 ; strain: PC92 (ganciclovir- foscarnet-susceptible) ; method: plaque count ; measure: EC75 ; value: 0.83 µM
CC/C=C\Cn1c(=O)sc2c(=O)[nH]c(N)nc21 ; strain: TOWNE ; measure: EC50 ; value: <40 µM
Nc1nc(NC2CC2)c2ncn(C=C3CC3CO)c2n1 ; cells: HFF ; strain: DAVIS ; method: plaque count ; measure: EC50 ; value: 2.2 µM
O=C(NCc1ccc(Cl)cc1)c1c[nH]c2c(F)cccc2c1=O ; strain: P53 GDG-resistant ; method: plaque count ; measure: EC50 ; value: 5.8 µM
CCCCCCCCCCCCOCCCOP(=O)(O)CO[C@H](CO)Cn1ccc(N)nc1=O ; cells: HFF ; strain: VR4760 (foscarnet-resistant) ; method: plaque count ; measure: EC50 ; value: 0.02 µM
COc1cccc(N2CCN(C3=Nc4c(F)cccc4[C@H](CC(=O)O)N3c3cc(C(F)(F)F)ccc3OC)CC2)c1 ; strain: Clinical isolate 9 ; method: plaque count ; measure: EC50 ; value: 0.0008 µM
NC(=O)c1c(Cl)c(-c2cccnc2)n2c1CCCC2 ; cells: HEL ; strain: DER648 (ganciclovir cidofovir-resistant) ; method: plaque count ; measure: EC50 ; value: 0.0012 µM
Nc1nc2c(ncn2COC(CO)CO)c(=O)[nH]1 ; cells: MRC-5 ; strain: C8803 ; method: hybridisation ; measure: EC50 ; value: 0.7 µM
Nc1nc2c(ncn2[C@@H]2C[C@H](CO)[C@H]2CO)c(=O)[nH]1 ; cells: MRC-5 ; strain: PAAR ; method: plaque count ; measure: EC75 ; value: 12.29 µM
Nc1ccn(C[C@@H](CO)OCP(=O)(O)O)c(=O)n1 ; cells: HFF ; strain: AD169 ; method: plaque count ; measure: EC50 ; value: 0.2 µg/mL
CCCCCCCCCCCCCCCCCCOCCOP(=O)(O)CO[C@H](CO)Cn1ccc(N)nc1=O ; cells: MRC-5 ; strain: WILD TYPE ; method: plaque count ; measure: EC50 ; value: 0.00096 µM
OC[C@H]1O[C@@H](n2c(Br)nc3cc(Cl)c(Cl)cc32)[C@H](O)[C@@H]1O ; cells: HFF ; strain: GDGRP53 (drug-resistant) ; method: plaque count ; measure: EC50 ; value: 2.1 µM
OC[C@H]1O[C@@H](n2c(Br)nc3cc(Cl)c(Cl)cc32)[C@H](O)[C@@H]1O ; cells: HFF ; strain: C4 (BDCRB- maribavir-resistant) ; method: plaque count ; measure: EC50 ; value: 37.7 µM
Nc1nc2c(ncn2COC(CO)CO)c(=O)[nH]1 ; cells: HFF ; strain: Coffman ; method: plaque count ; measure: EC50 ; value: 11.5 µM
Nc1ccn(C[C@@H](CO)OCP(=O)(O)O)c(=O)n1 ; cells: MRC-5 ; strain: Towne (ganciclovir- foscarnet-susceptible) ; method: plaque count ; measure: EC75 ; value: 0.97 µM
CN(C)c1cccc2c(S(=O)(=O)Nc3ccc(NC(=O)C(C)(C)CO)cc3)cccc12 ; cells: HFF ; strain: R56 (BDCRB-resistant) ; method: plaque count ; measure: EC50 ; value: 1.9 µM
O=C(O)P(=O)(O)O ; strain: AD169 ; method: plaque count ; measure: EC50 ; value: 50 µM
Nc1ccn(C[C@@H](CO)OCP(=O)(O)O)c(=O)n1 ; cells: HEL ; strain: Ganciclovir-resistant ; method: plaque count ; measure: EC50 ; value: 3.9 µM
CCCCCCCCCCCCCCCCOCCCOP(=O)(O)CO[C@H](CO)Cn1ccc(N)nc1=O ; cells: MRC-5 ; strain: WILD TYPE ; method: plaque count ; measure: EC50 ; value: 0.0009 µM
Nc1nc(N)c2ncn(C=C3CC3CO)c2n1 ; cells: HFF ; strain: AD169 ; method: cytopathic effect ; measure: EC50 ; value: 11.2 µM
O=C(NCc1ccc(Cl)cc1)c1c[nH]c2c(F)cccc2c1=O ; strain: Clinical isolates ; method: plaque count ; measure: EC50 ; value: 11.9 µM
CC(C)Nc1nc2cc(Cl)c(Cl)cc2n1[C@H]1O[C@@H](CO)[C@H](O)[C@@H]1O ; cells: MRC-5 ; strain: C9207 ; method: plaque count ; measure: EC50 ; value: 0.44 µM
CC(C)Nc1nc2cc(Cl)c(Cl)cc2n1[C@H]1O[C@@H](CO)[C@H](O)[C@@H]1O ; cells: HFF ; strain: AD169 ; method: virus yield ; measure: EC90 ; value: 1.1 µM
CCCCCCCCCCCCCCCCCCOCCOP1(=O)CO[C@@H](Cn2ccc(N)nc2=O)CO1 ; cells: MRC-5 ; strain: TOWNE ; method: plaque count ; measure: EC50 ; value: 0.001 µM
CCCCCCCCCCCCCCCCOP(=O)(O)CO[C@H](CO)Cn1ccc(N)nc1=O ; cells: HFF ; strain: DAVIS ; method: plaque count ; measure: EC50 ; value: 0.005 µM
C[C@@H]1O[C@@H](n2c(Cl)nc3cc(Cl)c(Cl)cc32)[C@H](O)[C@@H]1O ; cells: HFF ; strain: D10 (BDCRB- and maribavir-resistant) ; method: plaque count ; measure: EC50 ; value: 0.54 µM
Nc1ccn(C[C@H]2COP(=O)(O)CO2)c(=O)n1.O=C(O)P(=O)(O)O ; cells: MRC-5 ; strain: Towne (ganciclovir- foscarnet-susceptible) ; method: plaque count ; measure: EC50 ; value: 1.01 µM
COC(=O)[C@H](C)NP(=O)(OC[C@H]1C/C1=C/n1cnc2c(OC)nc(N)nc21)Oc1ccccc1 ; cells: HFF ; strain: AD169 ; method: plaque count ; measure: EC50 ; value: 4.5 µM
CCCCCCCC/C=C\CCCCCCCOCCCOP(=O)(O)CO[C@H](CO)Cn1ccc(N)nc1=O ; cells: HFF ; strain: AD169 ; method: plaque count ; measure: EC50 ; value: 0.002 µM
Nc1nc2c(ncn2C=C2CC2CO)c(=O)[nH]1 ; cells: HFF ; strain: CH ; method: plaque count ; measure: EC50 ; value: 3.1 µM
Nc1nc2c(ncn2C[C@@H]2CC[C@@H](P(=O)(O)O)O2)c(=O)[nH]1 ; cells: MRC-5 ; strain: AD169 ; method: plaque count ; measure: EC50 ; value: 0.11 µg/mL

The last 3 rows once more:

smiles	cells	strain	method	measure	value
CCCCCCCC/C=C\CCCCCCCOCCCOP(=O)(O)CO[C@H](CO)Cn1ccc(N)nc1=O	HFF	AD169	plaque count	EC50	0.002 µM
Nc1nc2c(ncn2C=C2CC2CO)c(=O)[nH]1	HFF	CH	plaque count	EC50	3.1 µM
Nc1nc2c(ncn2C[C@@H]2CC[C@@H](P(=O)(O)O)O2)c(=O)[nH]1	MRC-5	AD169	plaque count	EC50	0.11 µg/mL